The results in this text go back to patent publication US7718767B2, “3-ether and 3-thioether substituted cyclosporin derivatives for the treatment and prevention of hepatitis C infection” (Scynexis, Inc., priority 2006, dated 2010).

In the series the test system is HIV-1IIIB. Briefly: HIV MTS cytoprotection assay in CEM-SS cells. It counts as cell-based, human immunodeficiency virus-1. (In general: Formazan colour is commonly taken as a measure of viable cells.)

Take `C/C=C/C[C@@H](C)[C@@H](O)[C@H]1C(=O)N[C@@H](CC)C(=O)N(C)C(SCC)C(=O)N(C)[C@@H](CC(C)C)C(=O)N[C@@H](C(C)C)C(=O)N(C)[C@@H](CC(C)C)C(=O)N[C@@H](C)C(=O)N[C@H](C)C(=O)N(C)[C@@H](CC(C)C)C(=O)N(C)[C@@H](CC(C)C)C(=O)N(C)[C@@H](C(C)C)C(=O)N1C` (some centres unmarked) [P, 3-ethylthiocyclosporin]: the “Selectivity Index IC50/EC50” value was determined as 38. As for `C=CCS[C@@H]1C(=O)N(C)[C@@H](CC(C)C)C(=O)N[C@@H](C(C)C)C(=O)N(C)[C@@H](CC(C)C)C(=O)N[C@@H](C)C(=O)N[C@H](C)C(=O)N(C)[C@@H](CC(C)C)C(=O)N(C)[C@@H](CC(C)C)C(=O)N(C)[C@@H](C(C)C)C(=O)N(C)[C@@H]([C@H](O)[C@H](C)C/C=C/C)C(=O)N[C@@H](CC)C(=O)N1C` [Q, 3-propenylthiocyclosporin], the “Selectivity Index IC50/EC50” value is given as 82.
